According to patent US20260384408A1, “SUBSTITUTED BENZODIAZEPINES AS FUNGICIDES” (published 2026):

Key:
Botrytis cinerea [1] = experiment: Long lasting control of Botrytis cinerea on leaves of green pepper (greenhouse); settings: 63 ppm, inoculated 7 days after spraying, assessed after 5 days, untreated 90% infected
Botrytis cinerea [2] = experiment: Preventative fungicidal control of Botrytis cinerea on leaves of green pepper (greenhouse); settings: inoculated next day, assessed after 5 days, untreated 90% infected
Sclerotinia sclerotiorum = experiment: Preventative fungicidal control of white mold on cabbage caused by Sclerotinia sclerotiorum (greenhouse); settings: 125 ppm, 8 days, untreated 80% infected
Pyricularia oryzae = settings: 31 ppm; relative to compound-free control (100%)
Alternaria solani = settings: 31 ppm; relative to compound-free control (100%)
Cercospora zeae maydis = settings: 31 ppm; relative to compound-free control (100%)
Cercospora beticula = settings: 31 ppm; relative to compound-free control (100%)

Row | SMILES | growth of the pathogen (% diseased leaf area) (Botrytis cinerea [1]) | growth of the pathogen (% diseased leaf area) (Botrytis cinerea [2]; 250 ppm) | growth of the pathogen (% diseased leaf area) (Sclerotinia sclerotiorum) | growth of the pathogen (% diseased leaf area) (Botrytis cinerea [2]; 125 ppm) | growth of the pathogen (relative growth) (Pyricularia oryzae) | growth of the pathogen (relative growth) (Alternaria solani) | growth of the pathogen (relative growth) (Cercospora zeae maydis) | growth of the pathogen (relative growth) (Cercospora beticula)
1 | CCN1C(=O)C(C)(C)N=C(c2cnc(C(F)F)c(C)c2)c2cccc(F)c21 | at most 17% | at most 13% |  |  |  |  |  | 
2 | Cc1cc(C2=NC(C)(C)C(=O)N(C)c3c(F)cccc32)cnc1C(F)F | at most 17% | at most 13% |  |  |  |  |  | 
3 | Cc1cc(C2=NC(C)(C)C(C)(C)N(C)c3c(F)cccc32)cnc1C(F)F |  |  | at most 20% | at most 22% | up to 22% | up to 21% |  | 
4 | Cc1cc(C2=NC(C)C(C)N(C)c3c(Br)cccc32)cnc1C(F)F (stereo not drawn) |  |  |  | at most 22% | up to 22% | up to 21% |  | 
5 | Cc1cc(C2=NC(C)CN(C)c3c(F)cccc32)cnc1C(F)F (stereo not drawn) |  |  | at most 20% | at most 22% | up to 22% | up to 21% |  | 
6 | Cc1cc(C2=NC3(CC3)C(C)N(C)c3c(F)cccc32)cnc1C (stereo not drawn) |  |  |  | at most 22% |  | up to 21% | up to 17% | up to 18%
7 | Cc1cc(C2=NC3(CC3)C(C)N(C)c3c(F)cccc32)cnc1C(F)F (stereo not drawn) |  |  |  |  |  | up to 21% |  | up to 18%
8 | Cc1cc(C2=NC3(CC3)CN(C)c3c(F)cccc32)cnc1C |  |  |  | at most 22% |  | up to 21% | up to 17% | up to 18%
9 | Cc1cc(C2=NCC(C)(C)N(C)c3c(F)cccc32)cnc1C(F)F |  |  | at most 20% | at most 22% | up to 22% | up to 21% |  | 
10 | Cc1cc(C2=NCC(C)N(C)c3c(F)cccc32)cnc1C(F)F (stereo not drawn) |  |  | at most 20% | at most 22% | up to 22% | up to 21% |  | up to 18%
11 | Cc1cc(C2=NCC3(CC3)N(C)c3c(F)cccc32)cnc1C(F)F |  |  |  | at most 22% | up to 22% | up to 21% |  | 
12 | Cc1cc(C2=N[C@@H](C)CN(C)c3c(F)cccc32)cnc1C(F)F |  |  | at most 20% | at most 22% | up to 22% | up to 21% | up to 17% | 
13 | Cc1cc(C2=N[C@H](C)CN(C)c3c(F)cccc32)cnc1C(F)F |  |  |  |  | up to 22% |  |  | 
14 | C#CCN1c2c(F)cccc2C(c2cnc(C(F)F)c(C)c2)=N[C@@H](C)[C@@H]1C (racemic) |  |  |  | at most 22% | up to 22% | up to 21% | up to 17% | up to 18%
15 | C#CCN1c2c(F)cccc2C(c2cnc(C(F)F)c(C)c2)=N[C@@H](C)[C@H]1C (racemic) |  |  | at most 20% | at most 22% |  |  | up to 17% | up to 18%
16 | C=C(C)CN1c2c(F)cccc2C(c2cnc(C(F)F)c(C)c2)=N[C@@H](C)[C@H]1C (racemic) |  |  | at most 20% | at most 22% |  |  | up to 17% | up to 18%
17 | C=CCN1c2c(F)cccc2C(c2cnc(C(F)F)c(C)c2)=N[C@@H](C)[C@@H]1C (racemic) |  |  |  | at most 22% |  |  |  | up to 18%
18 | C=CCN1c2c(F)cccc2C(c2cnc(C(F)F)c(C)c2)=N[C@@H](C)[C@H]1C (racemic) |  |  |  | at most 22% | up to 22% |  | up to 17% | up to 18%
19 | CC#CCN1c2c(F)cccc2C(c2cnc(C(F)F)c(C)c2)=N[C@@H](C)[C@@H]1C (racemic) |  |  |  | at most 22% |  |  | up to 17% | up to 18%
20 | CC#CCN1c2c(F)cccc2C(c2cnc(C(F)F)c(C)c2)=N[C@@H](C)[C@H]1C (racemic) |  |  | at most 20% | at most 22% |  |  |  | 

Row | SMILES | growth of the pathogen (% diseased leaf area) (Botrytis cinerea [1]) | growth of the pathogen (% diseased leaf area) (Botrytis cinerea [2]; 250 ppm) | growth of the pathogen (% diseased leaf area) (Sclerotinia sclerotiorum) | growth of the pathogen (% diseased leaf area) (Botrytis cinerea [2]; 125 ppm) | growth of the pathogen (relative growth) (Pyricularia oryzae) | growth of the pathogen (relative growth) (Alternaria solani) | growth of the pathogen (relative growth) (Cercospora zeae maydis) | growth of the pathogen (relative growth) (Cercospora beticula)
21 | CCCN1c2c(F)cccc2C(c2cnc(C(F)F)c(C)c2)=N[C@@H](C)[C@@H]1C (racemic) |  |  |  | at most 22% |  |  |  | up to 18%
22 | CCCN1c2c(F)cccc2C(c2cnc(C(F)F)c(C)c2)=N[C@@H](C)[C@H]1C (racemic) |  |  | at most 20% | at most 22% |  |  | up to 17% | 
23 | CCN1c2c(F)cccc2C(c2cnc(C(F)F)c(C)c2)=N[C@@H](C)[C@@H]1C (racemic) |  |  | at most 20% | at most 22% |  |  | up to 17% | 
24 | CCN1c2c(F)cccc2C(c2cnc(C(F)F)c(C)c2)=N[C@@H](C)[C@H]1C (racemic) |  |  |  | at most 22% |  |  |  | 
25 | COC(=O)CN1c2c(F)cccc2C(c2cnc(C(F)F)c(C)c2)=N[C@@H](C)[C@H]1C (racemic) |  |  |  | at most 22% |  |  |  | 
26 | COc1ccc2c(c1F)N(C)[C@@H](C)[C@H](C)N=C2c1cnc(C(F)F)c(C)c1 (racemic) |  |  |  | at most 22% | up to 22% | up to 21% |  | 
27 | COc1ccc2c(c1F)N(C)[C@H](C)[C@H](C)N=C2c1cnc(C(F)F)c(C)c1 (racemic) |  |  |  | at most 22% | up to 22% | up to 21% |  | 
28 | CSc1ccc2c(c1F)N(C)[C@@H](C)[C@H](C)N=C2c1cnc(C(F)F)c(C)c1 (racemic) |  |  |  | at most 22% | up to 22% | up to 21% |  | 
29 | CSc1ccc2c(c1F)N(C)[C@H](C)[C@H](C)N=C2c1cnc(C(F)F)c(C)c1 (racemic) |  |  |  | at most 22% | up to 22% |  |  | 
30 | Cc1cc(C2=N[C@@H](C)[C@@H](C)N(C)c3c(Br)cccc32)cnc1C(F)F (racemic) |  |  | at most 20% | at most 22% | up to 22% |  |  | 
31 | Cc1cc(C2=N[C@@H](C)[C@@H](C)N(C)c3c(Cl)cccc32)cnc1C(F)F (racemic) |  |  | at most 20% | at most 22% | up to 22% |  |  | 
32 | Cc1cc(C2=N[C@@H](C)[C@@H](C)N(C)c3c(F)cccc32)cnc1C (racemic) |  |  |  | at most 22% | up to 22% | up to 21% |  | 
33 | Cc1cc(C2=N[C@@H](C)[C@@H](C)N(C)c3c2ccc(Br)c3F)cnc1C(F)F (racemic) |  |  |  | at most 22% | up to 22% |  |  | 
34 | Cc1cc(C2=N[C@@H](C)[C@@H](C)N(C)c3c2ccc(F)c3F)cnc1C(F)F (racemic) |  |  | at most 20% | at most 22% | up to 22% | up to 21% |  | 
35 | Cc1cc(C2=N[C@@H](C)[C@@H](C)N(C)c3ccccc32)cnc1C (racemic) |  |  |  |  |  | up to 21% | up to 17% | 
36 | Cc1cc(C2=N[C@@H](C)[C@H](C)N(C)c3c(Cl)cccc32)cnc1C(F)F (racemic) |  |  | at most 20% | at most 22% | up to 22% | up to 21% |  | 
37 | Cc1cc(C2=N[C@@H](C)[C@H](C)N(C)c3c(F)cccc32)cnc1C (racemic) |  |  |  | at most 22% | up to 22% | up to 21% |  | 
38 | Cc1cc(C2=N[C@@H](C)[C@H](C)N(C)c3c2ccc(Br)c3F)cnc1C(F)F (racemic) |  |  |  | at most 22% | up to 22% | up to 21% |  | 
39 | Cc1cc(C2=N[C@@H](C)[C@H](C)N(C)c3c2ccc(Cl)c3F)cnc1C(F)F (racemic) |  |  |  | at most 22% | up to 22% | up to 21% | up to 17% | 
40 | Cc1cc(C2=N[C@@H](C)[C@H](C)N(C)c3c2ccc(F)c3F)cnc1C(F)F (racemic) |  |  | at most 20% | at most 22% | up to 22% | up to 21% |  | 
